From the supplement of paper PMC9931576
Human monoclonal antibodies against the spike receptor-binding domain (heavy:light variable regions). IC50 against pseudoviruses bearing the spike of naturally observed variants; lower = stronger; >10 µg/ml means not reached at the top dose. No active / inactive call. The stated detection limit is 0.0005 µg/ml; values near or below 0.001 µg/ml lie at the floor of the assay.

B1: BD56-1403 (protein)
chain 1: QVQLQESGPGLVKPSETLSLTCTVSGDSVHSGSYYWSWIRQPPGKGLEWIGYIYYSGSTNYNPSLKSRITMSLDTSKNQFSLKLNSVTAADTAVYYCARGFVVAVTAAPWFDPWGQGTLVTVSS
chain 2: QSVLTQPPSVSGAPGQRVTISCTGSSSNIGAGFDVHWYQQLPGTAPKLLIYRNNNRPSGIPDRFSGSKSGTSASLAITGLQAEDEADYYCQSYDSSLSGWVFGGGTKLTVL
B2: BD56-1414 (protein)
chain 1: EVQLVESGGGLVQPGRSLRLSCAASGFTFDDYAMHWVRQAPGKGLEWVSGISWNGGSRGYADSVKGRFTISRDNAKNSLYLQMNSLRVEDTAFYYCTKDDVRDYYGSDNWNWFDPWGQGTLVTVSS
chain 2: DIQMTQSPSSLSASVGDRVTITCRASQSISSYLNWYQQRPGKAPRLLIYAGISLQNGVPSRFSGSGSGTDFTLTISSLQPEDFATYYCQQNYRTPYTFGQGTKLEIK
B3: COV2-2413 (protein)
chain 1: QVQLVQSGAEVKKPGASVKVSCKASGYTFTSYDINWVRQATGQGLEWMGWMNPNSGNAGYGQKFQGRVTMTRNTSISTAYMELSSLRSEDTAVYYCARMRSGWPTHGRPDDYWGRGTLVTVSS
chain 2: QSVLTQPPSASGTPGQRVTFSCSGSNSNIGSYTVNWYQQLPGTAPKLLIYDNNQRPSGVPDRFSGSKSGTSASLAISGLQSEDEADYYCAVWDDSLNGLVFGGGTKLTVL
B4: BD56-1418 (protein)
chain 1: QVQLVESGGGVVQSGRSLRLSCAASGFTFRNHGMHWVRQAPGKGLEWVAVIWNDGTNKYYAHSVKGRFTISRDNSKNTMYMEMNSLRAEDTAVYYCARDYGVGATMDDYFDYWGRGTLVTVSS
chain 2: QSVLTQPPSASGTPGQRVTISCSGSSSNIGDNYVYWYQHLPGTAPKLLIYRNNQRPSGVPDRFSGSKSGTSASLAISGLRSDDEADYHCAAWDDSLSGWAFGGGTKLTVL
B5: BD56-1419 (protein)
chain 1: QVQLQESGPGLVKPSETLSLTCAVSGDSVHSGRYYWSWIRQSPGKGLEWIGYIYYSGSSHYNPSLKSRVSISMDTSKNQFSLELRSVTAADTAVYYCARGFVVVVTSTPWFDPWGQGTLVTVSS
chain 2: QSVLTQPPSVSGAPGQRVTFSCTGSRSNIGAGYGAHWYQQLPGRAPKLLIYGNSSRPSGVPDRFSGSKSGTSASLAITGLQAEDEADYFCQSYDSRLSAWVFGGGTKLTVL
B6: BD56-1421 (protein)
chain 1: QVQLVESGGGVVQPGRSLRLSCAASGFTFRNYGMHWVRQAPGKGLEWVAVIWNDGTNKYYGDSVKGRFTISRDNSKNTLYLQMNTLRAEDTAVYYCARDYGVGATLEDYFDYWGPGTLVTVSS
chain 2: QSVLTQPPSASGTPGQRVTISCSGSSSNIGINFVYWYYHFPGTAPKLLIYKNNQRPSGVPDRFSGAKSGTSASLAIGGLRSEDEADYYCAAWDDSLGGWVFGGGTKLTVL
B7: BD56-1424 (protein)
chain 1: QLQLQESGPGLVKPSETLSLTCTVSGGSISSSRYYWGWIRQPPGKGLEWVGNFYYSGSTYYNPSLKSRVTISVDTSKNQFSLKVSSVTAADTAVYYCTRDAHGDFSWDYWGQGTLVTVSS
chain 2: QSVLTQSPSVSGAPGQRVNISCTGSSSNIGAGYDVHWYQQLPGAAPKLLIYGNSNRPSGVPDRFSGSKSGTSASLAITGLQAEDEADYFCQTYDTSLSGSGYVFGTGTKVTVL
B8: BD56-1427 (protein)
chain 1: QVQLVESGGGVVQPGRSLRLSCAASGFTFSIYGMHWVRQAPGKGLEWVAVISHDGSNKYYTDSVRGRFTISRDNSKNTLYLQMNSLRVEDTAVYYCAKGSGYCSGGRCYPEGYFDYWAQGTLVTVSS
chain 2: SYVLTQPPSVSVAPGKTARITCGGNDIGSKNVHWYQQKPGQAPVLVVYDDSDRPSGIPERFSGSNSGNTATLIISRVEAGDEADYYCQVWDSSSNLYWVFGGGTKLTVL
B9: BD56-1430 (protein)
chain 1: EVQLVESGGGLVQPGGSLRLSCAASGLIVSSNYMSWVRQAPEKGLEWVSEIYAGGSTFHSGSVKGRFIISRDNSKNTVYLQMNSLRAEDSAVYYCVRDLKHDGMDVWGQGTTVTVSS
chain 2: DIQLTQSPSFLSASVGDRVTITCRATQGIGNSLAWYQQKPGKAPNLLIYAASSLQSGVPSRFSGSASGTEFTLTISSLQPEDFATYYCQQLNGYPSMCTFGQGTKLEIK
B10: BD56-1431 (protein)
chain 1: QVHLVESGGGVVQPGRSLRLSCAASGFIFRDYGMHWVRQAPGKGLEWVAVIWYDGTNKYYADSVKGRFTISRDNSKNTLYLQIDSLRAEDTAVYYCARDYGVGATMDDYFDYWGQGTLVIVSS
chain 2: QSVLTQPPSASGAPGQRVSISCSGSNSNIGTNHIYWYQQLPGTAPKLLIYRNNQRPSGVPDRFSGSKSGTSASLAISGLRSEDEADYYCAGWDDRLGGWVFGGGTKVTVL
B11: BD56-1433 (protein)
chain 1: EVQLVESGGGLVQPGGSLRLSCAASGFIFSSDDMHWVRQAPGKGLEWVSGIGTAGDTYYSDSVKGRFTISREDAKNSLYLQMNSLRAGDTAVYYCARGSDSGLHYYFDNWGQGTLVTVSS
chain 2: DVQMTQSPSSLSASIGDRVTITCRASQTITTYLNWYQQKAGKAPKLLIYAASSLQSGVPSRFSGSGSGTDFTLTISSLQPADFATYYCQQSYSAPPWTFGQGTKVEIK
B12: BD56-1434 (protein)
chain 1: QVQLVQSGAEVKKPGSSVKVSCKASGGTFSSYTISWVRQAPGQGLEWIGKIIPILGIADYAEQVQGRITITADTSTGTAYMDLSSLRSEDTAFYYCARERGYSDYGSAIYFDYWGQGTLVTVSS
chain 2: QSVLTQPPSVSGAPGQRVTISCTGTSSNIGAGYDVHWYQQVPGTAPKLLIYGNTNRPSGVPDRFSGSKSGTSASLAITGLQAEDEADYYCQSYDSSLSGSGVFGGGTKLTVL

Target: SARS-CoV-2 Omicron BA.1 spike pseudovirus
Assay: pseudovirus neutralization IC50; higher = weaker neutralization
Method: (§1)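 Single-round VSV luciferase pseudovirus mixed with antibody dilutions for 1 h and put on Huh-7 cells for about a day; IC50 from the dose curve.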

| Binder | pseudovirus neutralization IC50 |
| --- | --- |
| B1 | > 10 µg/mL |
| B2 | > 10 µg/mL |
| B3 | > 10 µg/mL |
| B4 | 0.468 µg/mL |
| B5 | > 10 µg/mL |
| B6 | > 10 µg/mL |
| B7 | > 10 µg/mL |
| B8 | > 10 µg/mL |
| B9 | 0.00609 µg/mL |
| B10 | 0.912 µg/mL |
| B11 | > 10 µg/mL |
| B12 | 0.0172 µg/mL |

Target: SARS-CoV-2 Omicron BA.2 spike pseudovirus
Assay: as above
Method: as §1

| Binder | pseudovirus neutralization IC50 |
| --- | --- |
| B1 | > 10 µg/mL |
| B2 | > 10 µg/mL |
| B3 | > 10 µg/mL |
| B4 | 0.399 µg/mL |
| B5 | > 10 µg/mL |
| B6 | > 10 µg/mL |
| B7 | > 10 µg/mL |
| B8 | > 10 µg/mL |
| B9 | 0.00728 µg/mL |
| B10 | 1.22 µg/mL |
| B11 | > 10 µg/mL |
| B12 | 0.0163 µg/mL |

Target: SARS-CoV-2 Omicron BA.2.75 spike pseudovirus
Assay: as above
Method: as §1

| Binder | pseudovirus neutralization IC50 |
| --- | --- |
| B1 | > 10 µg/mL |
| B2 | > 10 µg/mL |
| B3 | > 10 µg/mL |
| B4 | 0.258 µg/mL |
| B5 | > 10 µg/mL |
| B6 | > 10 µg/mL |
| B7 | > 10 µg/mL |
| B8 | > 10 µg/mL |
| B9 | > 10 µg/mL |
| B10 | 1.48 µg/mL |
| B11 | > 10 µg/mL |
| B12 | 0.0191 µg/mL |

Target: SARS-CoV-2 Omicron BA.5 spike pseudovirus
Assay: as above
Method: as §1

| Binder | pseudovirus neutralization IC50 |
| --- | --- |
| B1 | > 10 µg/mL |
| B2 | > 10 µg/mL |
| B3 | > 10 µg/mL |
| B4 | 0.167 µg/mL |
| B5 | > 10 µg/mL |
| B6 | > 10 µg/mL |
| B7 | > 10 µg/mL |
| B8 | > 10 µg/mL |
| B9 | 0.631 µg/mL |
| B10 | 1.31 µg/mL |
| B11 | > 10 µg/mL |
| B12 | 0.557 µg/mL |

Target: SARS-CoV-2 Omicron BQ.1.1 spike pseudovirus
Assay: as above
Method: as §1

| Binder | pseudovirus neutralization IC50 |
| --- | --- |
| B1 | > 10 µg/mL |
| B2 | > 10 µg/mL |
| B3 | > 10 µg/mL |
| B4 | 2.03 µg/mL |
| B5 | > 10 µg/mL |
| B6 | > 10 µg/mL |
| B7 | > 10 µg/mL |
| B8 | > 10 µg/mL |
| B9 | > 10 µg/mL |
| B10 | 2.12 µg/mL |
| B11 | > 10 µg/mL |
| B12 | 2.57 µg/mL |

Target: SARS-CoV-2 Omicron XBB spike pseudovirus
Assay: as above
Method: as §1

| Binder | pseudovirus neutralization IC50 |
| --- | --- |
| B1 | > 10 µg/mL |
| B2 | > 10 µg/mL |
| B3 | > 10 µg/mL |
| B4 | 2.06 µg/mL |
| B5 | > 10 µg/mL |
| B6 | > 10 µg/mL |
| B7 | > 10 µg/mL |
| B8 | > 10 µg/mL |
| B9 | > 10 µg/mL |
| B10 | 2.04 µg/mL |
| B11 | > 10 µg/mL |
| B12 | 2.25 µg/mL |

Target: SARS-CoV-2 early D614G spike pseudovirus
Assay: as above
Method: as §1

| Binder | pseudovirus neutralization IC50 |
| --- | --- |
| B1 | > 10 µg/mL |
| B2 | > 10 µg/mL |
| B3 | > 10 µg/mL |
| B4 | 0.551 µg/mL |
| B5 | > 10 µg/mL |
| B6 | > 10 µg/mL |
| B7 | > 10 µg/mL |
| B8 | > 10 µg/mL |
| B9 | 0.0247 µg/mL |
| B10 | 0.643 µg/mL |
| B11 | > 10 µg/mL |
| B12 | 0.214 µg/mL |
